Assay results reported in publication PMC7791793, “Mechanism of hERG inhibition by gating-modifier toxin, APETx1, deduced by functional characterization” (2021).

Molecular target: human ether-à-go-go-related gene potassium channel 1 (hERG), stable HEK 293 cell line (human) (UniProt Q12809)

In the case of “recombinant APETx3 (APETx1 T3P) (peptide)”, the ΔV1/2 of hERG at 10 μM recombinant APETx3 (T3P), whole-cell patch clamp is reported as 19 mV.
